Laboratory results: PubChem BioAssay AID504761 (Drosophila RNAi Screening Center, 2011)
The screen tested about 22,000 reagents; below is a random part of those that have a named target and a result. Over the whole deposit, 116 (0.52%) are marked active. 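Calls depend on retest data that are not deposited; infection was ranked per plate without normalising between plates; the unit of the infection score is not given.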 Raw values are not corrected between plates. The numbers tell different reagents against one gene apart. Further read-outs or replicates are left out here. The record does not give: the amount of reagent, the time to read-out.

Purpose: 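Fly genes whose silencing reduces dengue virus type 2 infection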 (primary screen)
System: D.Mel-2 cells from Drosophila
Reagent: long dsRNA against Drosophila genes
Treatment: infection with dengue virus type 2; dose and infection time not stated
Read-out: 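Per well on two replicate plates, imaging gave the percent of cells positive for viral envelope protein, ranked by infection, and a nuclear count of cells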
Reading the numbers: infection score: higher = more virus-infected cells; cell count: higher = more cells in the well
Call rule: 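Low infection ranks in the two replicates (chance level up to 0.065) followed by a retest with a 1.5-fold or larger significant decrease, p below 0.05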
Meaning of the calls: active = confirmed: knock-down lowers infection; inactive = not picked or not confirmed

CG8837 #1: infection score, replicate 1 = 9.61; cell count, replicate 1 = 6231; call = inactive
CG8837 #2: infection score, replicate 1 = 23.4; cell count, replicate 1 = 5759; call = inactive
Zip42C.2 (Zinc/iron regulated transporter-related protein 42C.2) #1: infection score, replicate 1 = 1.4; cell count, replicate 1 = 6848; call = inactive
Zip42C.2 (Zinc/iron regulated transporter-related protein 42C.2) #2: infection score, replicate 1 = 6.92; cell count, replicate 1 = 1793; call = inactive
cathD (cathepsin D): infection score, replicate 1 = 3.6; cell count, replicate 1 = 1860; call = inactive
trp (transient receptor potential): infection score, replicate 1 = 6.73; cell count, replicate 1 = 6431; call = inactive
Ccdc58 (Coiled-coil domain-containing 58): infection score, replicate 1 = 8.62; cell count, replicate 1 = 6088; call = inactive
CG5445: infection score, replicate 1 = 1.01; cell count, replicate 1 = 5646; call = inactive
Nup153 (Nucleoporin 153kD): infection score, replicate 1 = 43.5; cell count, replicate 1 = 1486; call = inactive
Obp50d (Odorant-binding protein 50d): infection score, replicate 1 = 1.86; cell count, replicate 1 = 6455; call = inactive
Poc1 (Proteome of centrioles 1) #1: infection score, replicate 1 = 9.42; cell count, replicate 1 = 6782; call = inactive
Poc1 (Proteome of centrioles 1) #2: infection score, replicate 1 = 17.4; cell count, replicate 1 = 5729; call = inactive

Just “infection score, replicate 1”, for 2 of the entries above:
Nup153 (Nucleoporin 153kD): 43.5
Obp50d (Odorant-binding protein 50d): 1.86
